Experimental data as given in ChEMBL document CHEMBL1135896, “Synthesis and notable antimalarial activity of acyclic peroxides, L-(alkyldioxy)-L-(methyldioxy)cyclododecanes” (J Med Chem, 2002).

Tested on: Plasmodium falciparum
Experiment: Antimalarial activity in vitro; Not active

Which NA does the source give for CCCCCCCCC1OOCCCOO1 here?
Its NA is “inactive”.

Calls of active or inactive are those of the source. The rule behind the calls is not given here.
